Target: recombinant HIV-1 capsid protein (CA) (Human immunodeficiency virus type 1 group M subtype B, UniProt P12493)
Experiment: Turbidity based HIV-1 capsid assembly assay
Assay type: biochemical
Details: initial assembly rate by turbidity; twofold dilutions over a 128 fold range; 30 μM CA, 2.25 M NaCl

Oc1c(Br)cc(C=NNc2nc3ccccc3s2)c(O)c1Br
IC50: 8 µM
